Values from PubChem BioAssay AID504761 (Drosophila RNAi Screening Center, 2011).
The screen tested about 22,000 reagents; shown is a random part of those that have a named target and a result. Over the whole deposit, 116 (0.52%) got an active call. 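Calls depend on retest data that are not deposited; infection was ranked per plate without normalising between plates; the unit of the infection score is not given.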 The raw values are shown without normalisation. Unmarked entries are inactive. A plus sign joins genes that one reagent is predicted to hit. Not stated in the record: the amount of reagent, the time to read-out.

- Test: 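Genome-wide fly cell screen for genes dengue virus requires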 (primary screen)
- Cells: D.Mel-2 cells from Drosophila
- Reagents: long dsRNA against Drosophila genes
- Conditions: infection with dengue virus type 2; dose and infection time not stated
- Read-out: 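Per well on two replicate plates, imaging gave the percent of cells positive for viral envelope protein, ranked by infection, and a nuclear count of cells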
- Reading the numbers: infection score: higher = more virus-infected cells; cell count: higher = more cells in the well
- Hit rule: 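Very low infection ranking in both replicate wells (chance probability at most 0.065), then a retest showing infection dropped 1.5-fold or more at p below 0.05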
- Calls: active = confirmed: knock-down lowers infection; inactive = not picked or not confirmed

target gene | dsRNA | infection score, replicate 1 | infection score, replicate 2 | cell count, replicate 1 | cell count, replicate 2
CG9205 (GeneID 38113) | DRSC08642 | 12.7 | 10.3 | 5718 | 4150
scpr-C + scpr-B + scpr-A | DRSC26639 | 9.27 | 3.55 | 5068 | 6623
CG30416 (GeneID 246603) | DRSC04565 | 25.2 | 14.3 | 6261 | 6166
Arts + Apl | DRSC10349 | 1.33 | 3.66 | 6330 | 6659
CG30001 (GeneID 246383) | DRSC05191 | 1.39 | 4.23 | 5918 | 5207
MagR (GeneID 32513) | DRSC20092 | 31.2 | 15.2 | 3967 | 5879
Arpc3A (GeneID 41917) | DRSC15596 | 7.31 | 9.24 | 5965 | 6377
Arpc3A (GeneID 41917) | DRSC27915 | 8.72 | 3.13 | 6694 | 6528
ValRS (GeneID 45783) | DRSC06864 | 9.89 | 10.1 | 5579 | 6095
lilli (GeneID 33496) | DRSC00708 | 3.36 | 2.79 | 5543 | 6155
Shawn + Tyler | DRSC19564 | 7.51 | 6.53 | 6974 | 6663
Shawn + Tyler | DRSC19565 | 1.18 | 0.26 | 6366 | 6581
Parp1 (GeneID 3355109) | DRSC07725 | 3.28 | 0.76 | 5674 | 5526
Parp1 (GeneID 3355109) | DRSC07778 | 0.88 | 1.13 | 6231 | 5953
Parp1 (GeneID 3355109) | DRSC07780 | 1.07 | 0.95 | 6647 | 6223
CG9184 (GeneID 38152) | DRSC08636 | 4.39 | 2.39 | 7327 | 7583
CG9184 (GeneID 38152) | DRSC22184 | 0.94 | 0.49 | 6986 | 6477
CG9184 (GeneID 38152) | DRSC23765 | 6.06 | 12.4 | 6735 | 5918
CG4168 (GeneID 34889) | DRSC01447 | 2.21 | 8.6 | 6146 | 5744
CG4168 (GeneID 34889) | DRSC01933 | 24.4 | 16.7 | 6349 | 6885
CG4168 (GeneID 34889) | DRSC21319 | 3.61 | 2.87 | 5980 | 6591
CG4168 (GeneID 34889) | DRSC22789 | 1.63 | 3.11 | 5959 | 6756
CG3592 (GeneID 31282) | DRSC18315 | 1.53 | 11.1 | 653 | 4593
HisRS (GeneID 32841) | DRSC19986 | 1.51 | 1.51 | 5686 | 5839
niki (GeneID 42959) | DRSC14285 | – | – | 259 | 383
ArgRS-m (GeneID 40929) | DRSC14186 | 9.93 | 16 | 5729 | 5471
Drsl2 (GeneID 38408) | DRSC08160 | 2.06 | 3.1 | 6509 | 3649
Drsl2 (GeneID 38408) | DRSC25541 | 3.71 | 5.26 | 6448 | 6403
CG4962 (GeneID 39793) | DRSC10464 | 4.88 | 13.9 | 6004 | 6253
DIP-epsilon (GeneID 7354433) | DRSC00932 | 2.22 | 3.33 | 6035 | 6906
DIP-epsilon (GeneID 7354433) | DRSC02313 | 4.59 | 7.22 | 6630 | 6430
DIP-epsilon (GeneID 7354433) | DRSC26835 | 13.9 | 23.3 | 6280 | 6170
CG6928 (GeneID 39367) | DRSC10749 | 13.5 | 15 | 5438 | 5731
Glt (GeneID 34193) | DRSC03333 | 24.6 | 5.04 | 2809 | 1092
Glt (GeneID 34193) | DRSC28681 | 21.1 | 8.95 | 3442 | 2995
CG8945 (GeneID 32693) | DRSC20129 | 1.63 | 1.93 | 6502 | 6645
CG12679 (GeneID 33031) | DRSC20493 | 6.51 | 7.23 | 6081 | 5741
CG12679 (GeneID 33031) | DRSC29589 | – | 6.89 | 385 | 682
CG6293 (GeneID 41259) | DRSC16011 | 16 | 16.2 | 5211 | 4837
CG6293 (GeneID 41259) | DRSC28774 | 8.65 | 2.95 | 2254 | 1354
Or45b (GeneID 35980) | DRSC07488 | 4.48 | 13.5 | 6628 | 6808
CG10584 (GeneID 40324) | DRSC11624 | 13.1 | 16.1 | 6584 | 6520
CG11889 + CG11891 | DRSC14426 | 1.17 | 10.8 | 6729 | 6033
CG11889 + CG11891 | DRSC14427 | 5.1 | 5.56 | 7201 | 1224
CG11889 + CG11891 | DRSC25728 | 11 | 3.29 | 6451 | 5688
CG5466 (GeneID 42444) | DRSC23002 | 3.25 | 4.62 | 6119 | 6390
CG5466 (GeneID 42444) | DRSC25795 | 5.71 | 6.08 | 6567 | 6584
CG13101 (GeneID 34221) | DRSC02201 | 16.5 | 19.4 | 5907 | 6019
CG3740 (GeneID 31119) | DRSC18508 | 12.9 | 6.66 | 4616 | 3663
Eig71Ei (GeneID 39710) | DRSC11156 | 0.38 | 2.1 | 6111 | 6146
Eig71Ei (GeneID 39710) | DRSC29123 | – | – | 374 | 292
gdrd (GeneID 39599) | DRSC10020 | 2.25 | 0.68 | 5916 | 6943
retn (GeneID 45976) | DRSC04679 | 8.84 | 13.6 | 2421 | 3186
retn (GeneID 45976) | DRSC27544 | 8.88 | 4.2 | 6319 | 7171
Grx1t (GeneID 37483) | DRSC04530 | 5.25 | 3.82 | 6533 | 6469
Grx1t (GeneID 37483) | DRSC28633 | 9.9 | 7.7 | 2313 | 1895
Sply (GeneID 46059) | DRSC07299 | 6.25 | 2.59 | 1264 | 6763
Sply (GeneID 46059) | DRSC27378 | 4.55 | 10.3 | 3054 | 6057
